Laboratory results from article PMC10994559 (PLOS Neglected Tropical Diseases, 2024).
Entries after “also recorded” stand apart in the source; their conditions may differ.

System: IFN-γ
Assay: IFN-γ in splenocyte supernatant of treated mice (ELISA)
Assay type: in vivo, Balb/c mice

Structure (SMILES) | IFN-γ/IL-4 ratio (AmB 8 mg/kg i.p.) | IFN-γ production, splenocyte supernatant (AmB 8 mg/kg i.p., vs DMSO control) | IFN-γ/IL-4 ratio (PHT-39 13.75 mg/kg i.p.) | IFN-γ/IL-4 ratio (PHT-39 13.75 mg/kg s.c.) | IFN-γ production, splenocyte supernatant (PHT-39 13.75 mg/kg s.c., vs PHT-39 i.p and AmB, 13.75 mg/kg)
C[C@@H]1[C@H](O)[C@@H](C)/C=C/C=C/C=C/C=C/C=C/C=C/C=C/[C@H](O[C@@H]2O[C@H](C)[C@@H](O)[C@H](N)[C@@H]2O)C[C@@H]2O[C@](O)(C[C@@H](O)C[C@@H](O)[C@H](O)CC[C@@H](O)C[C@@H](O)CC(=O)O[C@H]1C)C[C@H](O)[C@H]2C(=O)O [AmB, amphotericin B, reference compound] | higher than in the DMSO control group | suppressed the amount of IFN-γ significantly | – | – | –
CC[C@@H](C)[C@H](c1nc2ccccc2n1Cc1cn(-c2ccc(C(F)(F)F)cc2)nn1)N1C(=O)c2ccccc2C1=O [PHT-39] | – | – | did not show any significant difference with DMSO control | significantly higher ratio | higher in group 2 (PHT-39 s.c) compared to PHT-39 i.p group; also recorded: induced more IFN-γ
